Measured values: patent US12569478B2 (priority 2021, dated 2026)

Experiments:
[1] = test system: rats administered fentanyl; settings: Compound A 0.5, 1, 10, 50 mg/kg 12-15 minutes after start of fentanyl infusion, each dose vs preceding lower dose, p<0.001; cited from earlier work
[2] = test system: African green monkeys exposed to carfentanil and methamphetamine; test: Carfentanil and methamphetamine intoxication in African green monkeys (Example 3); settings: Compound A 100 mg/kg or 200 mg/kg and naloxone; paper example

SMILES: C[C@]12N3Cc4c(OCCCS(=O)(=O)O)ccc(OCCCS(=O)(=O)O)c4CN1C(=O)N1CN4C(=O)N5CN6C(=O)N7CN8C(=O)N9Cc%10c(OCCCS(=O)(=O)O)ccc(OCCCS(=O)(=O)O)c%10CN%10C(=O)N(CN%11C(=O)N(CN%12C(=O)N(CN(C3=O)[C@]12C)[C@@H]4[C@H]%125)[C@@H]6[C@H]%117)[C@]8(C)[C@@]9%10C
- minute ventilation (percent from pre-fentanyl baseline) [1]: significant improvement in minute ventilation
- attenuation of carfentanil/methamphetamine induced respiratory depression [2]: may be sufficient
